Measured values from several laboratories, pooled; numbers as filed in NIAID ChemDB.

Shared fields: target-level tests; agent: Hepatitis C virus; target: Nonstructural protein 5B; read-out: inhibition

Rows are shuffled and stem from different studies. Inhibition is in % at the dose shown (toxicity tests: loss of growth or viability).

structure	tested at	result
COc1nc(NCCc2c[nH]c3ccccc23)nc(Nc2ccc3cn[nH]c3c2)n1	10 µg/mL	52%
CSc1nc(Nc2ccc(N3CCOCC3)cc2)cc(N2CCN(CC(=O)NCCN3CCCCC3)CC2)n1	1 µg/mL	70%
O=C(NCCc1ccncc1)c1ccc(S(=O)(=O)Nc2ccc(N3CCOCC3)cc2)cc1	0.1 µg/mL	39%
CCOC(=O)C1=CN(N2CCN(c3nc(Nc4ccc5cn[nH]c5c4)nc(OC)n3)CC2)C(SC)N=C1	10 µg/mL	36%
CSc1nc(Nc2ccc(N3CCOCC3)cc2)cc(N2CCN(CC(=O)NCCCN3CCCC3)CC2)n1	1 µg/mL	74%
O=C(Nc1ccc2cn[nH]c2c1)c1cc(NCCc2ccccn2)c(F)cc1F	1 µg/mL	39%
CSc1nc(Nc2ccc(N3CCOCC3)cc2)cc(N2CCN(CC(=O)NCCO)CC2)n1	1 µg/mL	60%
COc1nc(Nc2ccc3cn[nH]c3c2)nc(N2CCN(CCO)CC2)n1	1 µg/mL	54%
O=C(O)c1ccc(S(=O)(=O)Nc2ccc(N3CCOCC3)cc2)cc1	10 µg/mL	93%
CSc1nc(Nc2ccc(N3CCOCC3)cc2)cc(N2CCN(CC(=O)NC3CCCC3)CC2)n1	1 µg/mL	60%
O=C(c1ccc(S(=O)(=O)Nc2ccc(N3CCOCC3)cc2)cc1)N(Cc1ccccn1)Cc1ccccn1	1 µg/mL	68%
O=C(Nc1ccc2[nH]ncc2c1)c1cc(NCCCn2ccnc2)c(F)cc1F	0.1 µg/mL	29%
COc1nc(Nc2ccc3cn[nH]c3c2)nc(N2CCN(C)CC2)n1	10 µg/mL	30%
CCN(CCO)c1cc(C(=O)Nc2ccc3cn[nH]c3c2)c(F)cc1F	1 µg/mL	26%
Cc1cnc(CNC(=O)c2ccc(S(=O)(=O)Nc3ccc(N4CCOCC4)cc3)cc2)cn1	0.1 µg/mL	62%
CSc1nc(Nc2ccc(N3CCOCC3)cc2)cc(N2CCN(CC(=O)N3CCN(c4cccc(C(F)(F)F)c4)CC3)CC2)n1	1 µg/mL	65%
CN(C)CCNc1cc(C(=O)Nc2ccc3cn[nH]c3c2)c(F)cc1F	10 µg/mL	39%
COC(=O)[C@@H]1CCCN1c1nc(Nc2ccc3cn[nH]c3c2)nc(OC)n1	1 µg/mL	10%
CSc1nc(Nc2ccc(N3CCOCC3)cc2)cc(N2CCN(CC(=O)N3CCN(CCN4CCOCC4)CC3)CC2)n1	1 µg/mL	63%
O=C(Nc1ccc2[nH]ncc2c1)c1cc(NCCc2ccccn2)c(F)cc1F	10 µg/mL	75%
COc1nc(NCCCN2CCOCC2)nc(Nc2ccc3cn[nH]c3c2)n1	10 µg/mL	84%
CCN(CCO)C(=O)CN1CCN(c2cc(Nc3ccc(N4CCOCC4)cc3)nc(SC)n2)CC1	1 µg/mL	72%

The last 2 rows once more:

{"structure": "COc1nc(NCCCN2CCOCC2)nc(Nc2ccc3cn[nH]c3c2)n1", "tested at": "10 µg/mL", "result": "84%"}
{"structure": "CCN(CCO)C(=O)CN1CCN(c2cc(Nc3ccc(N4CCOCC4)cc3)nc(SC)n2)CC1", "tested at": "1 µg/mL", "result": "72%"}